According to publication PMC10810714, “Antiretroviral Drug Exposure and Response in Obese and Morbidly Obese People With Human Immunodeficiency Virus (HIV): A Study Combining Modelling and Swiss HIV Cohort Data” (Clinical Infectious Diseases: An Official Publication of …, 2023):

Tests used:
HIV viral load = assay: Drug response in obese versus nonobese participants in the SHCS (concentration below efficacy threshold and viral load >50 copies/mL)
Procedure: The viral load was analyzed in conjunction with the TDM data to evaluate whether a decrease in ARV exposure in obese PWH is associated with a viral load of more than 50 copies/mL (the viral load measured on the date of the TDM assessment was considered for this evaluation).

[1] = Observed pharmacokinetics of antiretrovirals in nonobese and obese individuals (SHCS therapeutic drug monitoring data and literature studies, noncompartmental analysis); details: standard oral dose at steady state, SHCS TDM data with or without literature data
Text: We took several steps to analyse the impact of obesity on the ARVs exposure and response. First, we implemented our in-house PBPK model with our recently published virtual White obese population to simulate the pharmacokinetics of ARVs in nonobese and obese individuals. Next, we verified the simulations against the TDM data collected during the follow-up visits of the SHCS (multiple drug levels per individual were allowed [more information on the SHCS in the homonymous section in the Supplementary Material]). We then applied the verified model to extrapolate the pharmacokinetics across different obesity classes. Finally, the clinical relevance of obesity-related changes on drug response was evaluated by analyzing HIV viral load and the corresponding TDM values in obese and nonobese individuals in the SHCS.
All ARV drug models, except for doravirine (Supplementary Table 1), were previously developed and verified to predict the pharmacokinetics in healthy and elderly PWH [6, 12]. […] The TDM data were excluded if the participant’s age was younger than 20 or older than 50 years to avoid the age-related confounding effect on the pharmacokinetics, if a nonstandard ARV dosage was used, and if concurrent medications with inhibitory or inducing effects were used. The pharmacokinetic parameters including peak plasma concentration (Cmax), area under the curve to time t (AUCt), and trough concentration (Cτ) were derived from the TDM data using noncompartmental analysis.
A literature search was also performed to identify pharmacokinetic studies with ARVs conducted in obese and nonobese individuals. Data on the study design, characteristics of the participants, and pharmacokinetic results were collected. […] Available concentration-time profiles were digitalized using GetData Graph Digitizer V.2.26. The virtual trials were conducted by matching the participants’ demographics (eg, age, proportion of females, and BMI) and the ARV dosing regimen (Supplementary Table 2). The models were considered verified if the simulations were within 2-fold of observed data.
The Swiss HIV Cohort Study (SHCS) is an ongoing, nationwide, multicenter, clinic-based prospective cohort study in Switzerland with continuous enrollment and follow-up (twice a year) of people with HIV (PWH). Socio-demographic, clinical and laboratory data are recorded in detail. […] The collection of therapeutic drug monitoring (TDM) data in the SHCS database was initiated in 1998. All available TDM data for each evaluated antiretroviral drug were extracted from the SHCS database representing 6210 and 575 data points for the verification of the simulations in non-obese and obese individuals, respectively.

[2] = nonobese (BMI range per drug), GM
[3] = obese (BMI >=30, range per drug), GM (mean for etravirine)

## darunavir/ritonavir
HIV viral load; BMI 18.5–30 kg/m^2
  % PWH with concentration below efficacy threshold: 4.3%
HIV viral load; BMI >30 kg/m^2
  % PWH with concentration below efficacy threshold: 0%
[1]; [2]
  AUCt, observed, nonobese individuals: 73 282 ng*h/mL
  Cmax, observed, nonobese individuals: 6442 ng/mL
  Cτ, observed, nonobese individuals: 1532 ng/mL
  t1/2, observed, nonobese individuals: 13.4 h
[1]; [3]
  AUCt, observed, obese individuals: 58 641 ng*h/mL
  Cmax, observed, obese individuals: 4367 ng/mL
  Cτ, observed, obese individuals: 1556 ng/mL
  t1/2, observed, obese individuals: 12.8 h
